Measured values from several laboratories, pooled; numbers as filed in NIAID ChemDB.

All rows: growth or infection tests; agent: HIV-2; endpoint: EC50

ECn is the concentration giving n% inhibition of infection, replication or growth. An empty or dashed field is not shown. Conditions beyond the fields shown may differ between rows.

| compound | read by | strain or isolate | cell line | setting | result |
|---|---|---|---|---|---|
| C/C=C(/C)C(=O)O[C@@H]1[C@@H](C)[C@@]2(O)[C@@H](C=C(CO)C[C@]3(O)C(=O)C(C)=C[C@@H]23)[C@@H]2C(C)(C)[C@]12OC(C)=O | MTT | ROD | MT-4 |  | 0.003 µM |
| Cc1cn([C@H]2C[C@H](N=[N+]=[N-])[C@@H](CO)O2)c(=O)[nH]c1=O | cytopathic effect / XTT | CDC310319 | PBMC | clinical isolate | 0.003 µM |
| CC(C)=CCN1Cc2cccc3[nH]c(=S)n(c23)C[C@@H]1C | cytopathic effect / MTT | ROD | MT-4 |  | >105 µM |
| Cc1cn([C@@H]2O[C@H](CO[Si](C)(C)C(C)(C)C)C3(OS(=O)(=O)C=C3N)[C@H]2O[Si](C)(C)C(C)(C)C)c(=O)n(C)c1=O | cytopathic effect | ROD | MT-4 |  | >250 µM |
| Cc1cn([C@H]2C=C[C@@H](CO)O2)c(=O)[nH]c1=O | cytopathic effect / MTT | ROD | MT-4 |  | 0.08 µM |
| CCOP(=O)(O)COCCn1nnc2c(=O)[nH]c(N)nc21 | cytopathic effect / MTT |  | MT-4 |  | >315 µM |
| Fc1cccc(Cl)c1C1OCc2nc3ccccc3n21 | cytopathic effect / MTT | ROD | MT-4 |  | >44 µM |
| CC(=O)OCC1=C[C@H]2[C@@H]3C(C)(C)[C@]3(OC(=O)Cc3ccccc3)C[C@@H](C)[C@]2(O)[C@@H]2C=C(C)C(=O)[C@@]2(O)C1 | MTT | ROD | MT-4 |  | 0.031 µM |
| CC(C)=NOC(=O)OC[C@H]1O[C@@H](n2cc(C)c(=O)[nH]c2=O)C[C@@H]1N=[N+]=[N-] | cytopathic effect / MTT | ROD | MT-4 |  | 0.073 µM |
| Nc1nc(NC2CC2)c2ncn([C@H]3C=C[C@@H](COP4(=O)OCc5ccccc5O4)C3)c2n1 | syncytia | ROD | CEM |  | 1.1 µM |
| COc1ccc(CN[C@@H](C(=O)N[C@H](C(=O)NCc2ccc(OC)cc2O)C(C)C)[C@H](O)[C@H](Cc2ccccc2)NC(=O)[C@@H](NC(=O)OCc2ccccc2)C(C)C)cc1 | cytopathic effect / MTT | EHO | MT-4 |  | 0.06 µM |
| C=COC(=O)OC[C@H]1O[C@@H](n2cc(C)c(=O)[nH]c2=O)C[C@@H]1N=[N+]=[N-] | cytopathic effect / MTT | ROD | MT-4 |  | 0.009 µM |
| O=C(O)CCC(=O)O | cytopathic effect / MTT | ROD | MT-4 |  | >25 µM |
| Cc1cccc2c1OP(=O)(OCCOCn1cnc3c(=O)[nH]c(N)nc31)OC2 | syncytia | ROD | CEM |  | >50 µM |
| Cn1cc(N)cc1C(=O)Nc1cc(C(=O)Nc2ccc3cc(S(=O)(=O)O)cc(S(=O)(=O)O)c3c2)n(C)c1 | cytopathic effect / XTT | ROD | CEM + CEM-SS |  | 120 µM |
| Cc1cn([C@H]2C=C[C@@H](CO)O2)c(=O)[nH]c1=O | MTT | ROD | MT-4 |  | 0.19 µM |
| c1ccc(C2OCc3nc4ccccc4n32)cc1 | cytopathic effect / MTT | ROD | MT-4 |  | >16.9 µM |
| Nc1ncnc2c1nnn2CCOCP(=O)(O)O | cytopathic effect / MTT |  | MT-4 |  | 91 µM |
| COc1ccc2c(c1)N(C(=O)OC(C)C)[C@@H](CSC)C(=S)N2 | p24 | ROD | PBL |  | >10 µM |
| O=S1(c2ccccc2)=NC(=S)Nc2ccccc21 | cytopathic effect / XTT | ROD | CEM + CEM-SS |  | >73 µM |
| Cc1cn([C@H]2C=C[C@@H](COP(=O)(O)N(CC(=O)O)CC(=O)O)O2)c(=O)[nH]c1=O | MTT | ROD | CEM |  | 2.13 µM |
| CC(=O)O[C@@H]1[C@@H](C)[C@@]2(O)[C@@H](C=C(O)C[C@]3(O)C(=O)C(C)=C[C@@H]23)[C@@H]2C(C)(C)[C@]12O | MTT | ROD | MT-4 |  | >307 µM |
| Cc1cn([C@H]2C[C@H](N=[N+]=[N-])[C@@H](CO)O2)c(=O)[nH]c1=O | cytopathic effect / MTT | ROD | MT-4 |  | 0.106 µM |
| Fc1cccc(F)c1[C@H]1SCc2nc3ccccc3n21 | cytopathic effect | ROD | MT-4 |  | >38.1 µM |
| Cc1cn([C@H]2C[C@H](N=[N+]=[N-])[C@@H](CO)O2)c(=O)[nH]c1=O | cytopathic effect / XTT | ROD |  |  | 0.002 µM |
| C/C(=N\NC(=S)NNC(=S)c1ccc(Cl)cc1)C12CC3CC(CC(C3)C1)C2 |  | ROD | MT-4 |  | >10 µM |
| Nc1ncnc2c1ncn2CCOCP(=O)(O)O | cytopathic effect / MTT |  | MT-4 |  | 3.7 µM |
| Cc1cccc2c1OP(=O)(OC[C@@H]1C=C[C@H](n3cnc4c(NC5CC5)nc(N)nc43)C1)OC2 | syncytia | ROD | CEM |  | 0.75 µM |
| O=C(O)c1cc(Cc2ccc(O)c(C(=O)O)c2)ccc1O | cytopathic effect |  | MT-4 |  | >200 µM |
| Nc1nc2c(ncn2COCCOP2(=O)OCc3ccccc3O2)c(=O)[nH]1 | syncytia | ROD | CEM |  | >50 µM |
| C1CNCCNCC(CCOCCOCCC2CNCCNCCCNCCNC2)CNCCNC1 | cytopathic effect / MTT | ROD | MT-4 | 5 d | 34 µM |
| CC1(C)S[C@H]([C@H](NC(=O)Cc2ccccc2)C(=O)NCc2ccccc2)N[C@H]1C(=O)NCCNC(=O)[C@@H]1N[C@@H]([C@H](NC(=O)Cc2ccccc2)C(=O)NCc2ccccc2)SC1(C)C |  | ROD | CEM |  | 0.26 µM |
| Nc1nc2c(ncn2CCOCP(=O)(O)O)c(=O)[nH]1 | cytopathic effect / MTT |  | MT-4 |  | 0.2 µM |
| O=c1[nH]cnc2c1ncn2[C@H]1CC[C@@H](CO)O1 | ELISA | 1814 | PBMC |  | 0.63 µM |
| Cc1cn([C@H]2C[C@H](N=[N+]=[N-])[C@@H](CO)O2)c(=O)[nH]c1=O | cytopathic effect / XTT | ROD | CEM + CEM-SS |  | 0.6 µM |
| COP(=O)(O)C[C@H](NP(=O)(O)OC[C@@H]1C=C[C@H](n2cc(C)c(=O)[nH]c2=O)O1)C(=O)O | MTT | ROD | CEM/TK- |  | 177 µM |

The last 4 rows once more:

Nc1nc2c(ncn2CCOCP(=O)(O)O)c(=O)[nH]1 ; read by: cytopathic effect / MTT ; cell line: MT-4 ; result: 0.2 µM
O=c1[nH]cnc2c1ncn2[C@H]1CC[C@@H](CO)O1 ; read by: ELISA ; strain or isolate: 1814 ; cell line: PBMC ; result: 0.63 µM
Cc1cn([C@H]2C[C@H](N=[N+]=[N-])[C@@H](CO)O2)c(=O)[nH]c1=O ; read by: cytopathic effect / XTT ; strain or isolate: ROD ; cell line: CEM + CEM-SS ; result: 0.6 µM
COP(=O)(O)C[C@H](NP(=O)(O)OC[C@@H]1C=C[C@H](n2cc(C)c(=O)[nH]c2=O)O1)C(=O)O ; read by: MTT ; strain or isolate: ROD ; cell line: CEM/TK- ; result: 177 µM